Values after ≈ are worked out from the molar mass of the structure shown. Read-outs that look alike come from different tables or passages of the source.
Experiments:
BaIMPDH [1] = biological target: T1, BaIMPDH (Bacillus anthracis, UniProt A0A6L8P2U9); conditions: cited from earlier work
CpIMPDH [2] = biological target: T2, CpIMPDH (Cryptosporidium parvum, UniProt Q8T6T2); conditions: cited from earlier work
MtbIMPDH2ΔCBS = MtbIMPDH2ΔCBS (Mycobacterium tuberculosis, UniProt P9WKI7, DEL126-250/R252G); test: Inhibition of MtbIMPDH2ΔCBS (Ki,app); assay type: biochemical; conditions: read-out: K i,app; IMP 0.5 mM, NAD+ […]; average and SD of three independent determinations unless noted (P32 n = 1; Q22, Q36 n = 2)
B. anthracis = conditions: S8 Table; cited from earlier work
CpIMPDH [3] = biological target: T2, CpIMPDH; test: Inhibition of CpIMPDH; conditions: read-out: CpIMPDH Kiapp; S8 Table; no reference mark; Q77 single determination
BaIMPDH [4] = biological target: T1, BaIMPDH; test: Inhibition of BaIMPDH; assay type: biochemical
[5] = read-out: Ki,app BaIMPDH, S2 Table, footnote b
[6] = read-out: B. anthracis Ki,app, S8 Table, footnote c
[7] = read-out: B. anthracis Ki,app, S8 Table, no reference mark
[8] = read-out: Ki,app BaIMPDH, S1 Table, column head footnote c, A68 single determination
[9] = read-out: CpIMPDH Kiapp, S8 Table, footnote b
[10] = read-out: Ki,app BaIMPDH, S4 Table, no reference mark, footnote c = single determination (D50 unmarked)
[11] = read-out: Ki,app BaIMPDH, S4 Table, footnote b
[12] = read-out: Ki,app BaIMPDH, S5 Table, no reference mark
[13] = read-out: Ki,app BaIMPDH, S3 Table, BaIMPDH data from ref 37
[14] = read-out: Ki,app BaIMPDH, S2 Table, single determination

Protein sequences, listed by entry. Tags and fused reporters are not part of them.
UniProt Q8T6T2, whole entry: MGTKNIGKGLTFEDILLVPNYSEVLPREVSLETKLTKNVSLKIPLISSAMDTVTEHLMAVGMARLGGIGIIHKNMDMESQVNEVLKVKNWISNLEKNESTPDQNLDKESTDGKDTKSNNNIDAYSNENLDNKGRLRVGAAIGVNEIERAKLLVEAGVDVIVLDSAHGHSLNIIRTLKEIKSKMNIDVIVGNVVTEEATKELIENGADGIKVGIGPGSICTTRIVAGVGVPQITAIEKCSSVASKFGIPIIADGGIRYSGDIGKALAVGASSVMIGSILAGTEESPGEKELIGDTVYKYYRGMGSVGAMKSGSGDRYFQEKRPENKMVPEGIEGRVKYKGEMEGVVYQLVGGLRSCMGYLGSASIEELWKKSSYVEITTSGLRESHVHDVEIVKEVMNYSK

C[C@@H](Oc1ccnc2ccccc12)c1cn(-c2ccc(Cl)c(Cl)c2)nn1
Ki (BaIMPDH [1]; [5]): 20 nM
Ki (CpIMPDH [2]): 9 nM

O=C(Nc1ccc(Cl)cc1)C(Oc1cccc2ccccc12)C1CC1 (centres unmarked)
Ki (CpIMPDH [2]): > 5000 nM

CC(=NO)c1cccc(C(C)(C)NC(=O)Nc2ccc(Cl)c(C(=O)N(C)C)c2)c1
Ki (BaIMPDH [1]; [6]): 40 nM
Ki (CpIMPDH [2]; read-out: CpIMPDH Kiapp, S8 Table, footnote c): 4.2 nM
Ki (MtbIMPDH2ΔCBS): 13 nM
M. tuberculosis MIC (Mtb strain H37Rv): 2.9 µM
MIC in 7H9 media + Gua (Mtb strain H37Rv): 19 ± 6 µM
MIC in 7H9 media - Gua (Mtb strain H37Rv): 15.7 ± 5.5 µM (≈ 6.55 µg/mL)
MIC in GAST media + Gua (Mtb strain H37Rv): ≥40 µM
MIC in GAST media - Gua (Mtb strain H37Rv): 2.9 ± 0.4 µM (≈ 1.21 µg/mL)
B. anthracis MIC (B. anthracis): 23 µM

C[C@H](Oc1cccc(Cl)c1Cl)C(=O)Nc1ccc2oc(-c3ccncc3)nc2c1
Ki (CpIMPDH [3]): 1.2 nM
M. tuberculosis MIC (Mtb strain H37Rv): 9.4 µM
MIC in 7H9 media + Gua (Mtb strain H37Rv): 28 ± 9 µM
MIC in 7H9 media - Gua (Mtb strain H37Rv): 15.8 ± 5.5 µM (≈ 6.77 µg/mL)
MIC in GAST media + Gua (Mtb strain H37Rv): 37 µM
MIC in GAST media - Gua (Mtb strain H37Rv): 9.4 ± 3.0 µM (≈ 4.03 µg/mL)
Ki (BaIMPDH [4]; [7]): 10 nM

CC(Oc1cccc2ccccc12)C(=O)Nc1ccc(Br)cc1 (centres unmarked)
Ki (BaIMPDH [1]; [8]): 165 nM
Ki (CpIMPDH [2]): 161 nM

C[C@@H](Oc1cncc2ccccc12)c1cn(-c2ccc(Cl)cc2)nn1
Ki (BaIMPDH [1]; [5]): 15 nM
Ki (CpIMPDH [2]): 9 nM

CC(Oc1ccc(Cl)cc1Cl)C(=O)Nc1ccc2oc(-c3ccccn3)nc2c1 (centres unmarked)
Ki (CpIMPDH [2]; [9]): 210 nM
Ki (MtbIMPDH2ΔCBS): 2000 nM
M. tuberculosis MIC (Mtb strain H37Rv): 19.8 µM
MIC in 7H9 media + Gua (Mtb strain H37Rv): 50 ± 40 µM
MIC in 7H9 media - Gua (Mtb strain H37Rv): 25.3 ± 8.3 µM (≈ 10.8 µg/mL)
MIC in GAST media + Gua (Mtb strain H37Rv): 25 ± 12 µM
MIC in GAST media - Gua (Mtb strain H37Rv): 19.8 ± 14.9 µM (≈ 8.48 µg/mL)

O=C(Cc1n[nH]c(=O)c2ccccc12)Nc1ccc(F)cc1
Ki (CpIMPDH [2]): > 5000 nM
Ki (BaIMPDH [4]; [10]): 7300 nM

C[C@@H](Oc1ccnc2ccccc12)c1cn(-c2ccc(C#N)c(Cl)c2)nn1
Ki (BaIMPDH [1]; [5]): 340 nM
Ki (CpIMPDH [2]): 31 nM

O=C(Cc1n[nH]c(=O)c2ccccc12)Nc1ccc(Br)cc1
Ki (BaIMPDH [1]; [11]): 80 nM
Ki (CpIMPDH [2]): 130 nM

CC(Oc1ccnc2ccccc12)c1cn(-c2ccc(Cl)c(Cl)c2)nn1 (centres unmarked)
Ki (CpIMPDH [2]): 20 nM

C[C@@H](Oc1cccc2c1ccc[n+]2[O-])c1cn(-c2ccc(Cl)cc2)nn1
Ki (BaIMPDH [1]; [5]): 40 nM
Ki (CpIMPDH [2]): 24 nM

O=C(Cc1n[nH]c(=O)c2ccccc12)Nc1ccc(Cl)c(Cl)c1
Ki (CpIMPDH [2]): 55 nM
Ki (BaIMPDH [4]; [10]): 280 nM

C[C@H](Oc1cccc(Cl)c1Cl)C(=O)Nc1ccc2oc(-c3nccs3)nc2c1
antitubercular activity (active / inactive) (Mtb strain H37Rv): inactive

COc1cccc(O[C@@H](C)C(=O)Nc2ccc3oc(-c4ccncc4)nc3c2)c1OC
Ki (CpIMPDH [3]): 50 nM
Ki (MtbIMPDH2ΔCBS): 620 nM
M. tuberculosis MIC (Mtb strain H37Rv): 17.3 µM
MIC in 7H9 media + Gua (Mtb strain H37Rv): 31 ± 7 µM
MIC in 7H9 media - Gua (Mtb strain H37Rv): 22.0 ± 9.1 µM (≈ 9.23 µg/mL)
MIC in GAST media + Gua (Mtb strain H37Rv): 41 ± 6 µM
MIC in GAST media - Gua (Mtb strain H37Rv): 17.3 ± 4.1 µM (≈ 7.26 µg/mL)
Ki (BaIMPDH [4]; [7]): 75 nM

COc1ccc(NC(=O)Cc2n[nH]c(=O)c3ccccc23)cc1
Ki (CpIMPDH [2]): 1000 nM

C=C(C)c1cccc(C(C)(C)NC(=O)N(C)c2ccc(Cl)cc2)c1
Ki (BaIMPDH [4]; [12]): 1500 nM

CC(=NO)c1cccc(C(C)(C)NC(=O)Nc2ccc(Br)cc2)c1
Ki (CpIMPDH [2]; read-out: Ki,app CpIMPDH, S5 Table, footnote b): 9 nM

O=C(Cn1c(-c2nccs2)nc2ccccc21)Nc1ccc(Cl)c(Cl)c1
Ki (BaIMPDH [1]; [13]): 95 nM

Clc1ccc(-n2cc(COc3ccnc4ccccc34)nn2)cc1
Ki (BaIMPDH [1]; [5]): 800 nM
Ki (CpIMPDH [2]): 400 nM

CC(Oc1cccc2c1ccc[n+]2[O-])c1cn(-c2ccc(Cl)cc2)nn1 (centres unmarked)
Ki (BaIMPDH [1]; [5]): 90 nM
Ki (CpIMPDH [2]): 44 nM

C=C(C)c1cccc(C(C)(C)NC(=O)Nc2ccc3c(c2)OCCO3)c1
Ki (BaIMPDH [4]; [12]): 140 nM

O=C(Cc1n[nH]c(=O)c2ccccc12)Nc1ccc(Cl)cc1
Ki (BaIMPDH [1]; [11]): 300 nM
Ki (CpIMPDH [2]): 230 nM

CC(Oc1cc[n+]([O-])c2ccccc12)c1cn(-c2ccc(Cl)c(Cl)c2)nn1 (centres unmarked)
Ki (BaIMPDH [1]; [5]): 60 nM
Ki (CpIMPDH [2]): 18 nM

CC(Oc1ccnc2ccccc12)C(=O)Nc1ccc(Cl)cc1 (centres unmarked)
Ki (BaIMPDH [1]; [8]): 1000 nM
Ki (CpIMPDH [2]): 660 nM

CC(Oc1cccc2ccccc12)C(=O)Nc1ccc(C(F)(F)F)cc1 (centres unmarked)
Ki (BaIMPDH [1]; [8]): 650 nM
Ki (CpIMPDH [2]): 1500 nM

O=C(Cn1c(-c2nccs2)nc2ccccc21)Nc1ccc2ccccc2c1
Ki (BaIMPDH [1]; [13]): 15 nM

C[C@H](Oc1ccnc2ccccc12)c1cn(-c2ccc(C#N)c(Cl)c2)nn1
Ki (BaIMPDH [1]; [5]): 3700 nM
Ki (CpIMPDH [2]): 60 nM

CC(Oc1ccnc2ccccc12)c1cn(-c2ccc(C#N)c(Cl)c2)nn1 (centres unmarked)
Ki (CpIMPDH [2]): 40 nM
Ki (BaIMPDH [4]; [14]): 400 nM

CC(Oc1cc[n+]([O-])c2ccccc12)c1cn(-c2ccc(Cl)cc2)nn1 (centres unmarked)
Ki (CpIMPDH [2]): 30 nM

CC(=NO)c1cccc(C(C)(C)NC(=O)Nc2ccc(Cl)c(C(N)=O)c2)c1
Ki (CpIMPDH [2]; read-out: CpIMPDH Kiapp, S8 Table, footnote a): 5 nM
Ki (MtbIMPDH2ΔCBS): 158 nM
M. tuberculosis MIC (Mtb strain H37Rv): 11.4 µM
MIC in 7H9 media + Gua (Mtb strain H37Rv): ≥38 µM
MIC in 7H9 media - Gua (Mtb strain H37Rv): 27.2 ± 15.7 µM (≈ 10.6 µg/mL)
MIC in GAST media + Gua (Mtb strain H37Rv): ≥40 µM
MIC in GAST media - Gua (Mtb strain H37Rv): 11.4 ± 5.3 µM (≈ 4.43 µg/mL)
B. anthracis MIC (B. anthracis): 25 µM

CC(Oc1cccc2ccccc12)c1cn(-c2ccc(Cl)cc2)nn1 (centres unmarked)
Ki (BaIMPDH [1]; [5]): 260 nM
Ki (CpIMPDH [2]): 130 nM

C=C(C)c1cccc(C(C)(C)NC(=O)Nc2ccc3[nH]c(=O)[nH]c3c2)c1
Ki (BaIMPDH [4]; [12]): 3000 nM

COc1ccc(OC(C)C(=O)Nc2ccc3oc(-c4ccncc4)nc3c2)cc1 (centres unmarked)
Ki (CpIMPDH [3]): 28 nM
M. tuberculosis MIC (Mtb strain H37Rv): 5.3 µM
MIC in 7H9 media + Gua (Mtb strain H37Rv): 21 ± 4 µM
MIC in 7H9 media - Gua (Mtb strain H37Rv): 10.4 ± 1.8 µM (≈ 4.05 µg/mL)
MIC in GAST media + Gua (Mtb strain H37Rv): 24 ± 16 µM
MIC in GAST media - Gua (Mtb strain H37Rv): 5.3 ± 0.9 µM (≈ 2.06 µg/mL)
Ki (BaIMPDH [4]; [7]): 37 nM
B. anthracis MIC (B. anthracis): >50 µM

CC(C)C(Oc1cccc2ccccc12)C(=O)Nc1ccc(Br)cc1 (centres unmarked)
Ki (BaIMPDH [1]; [8]): 138 nM
Ki (CpIMPDH [2]): 400 nM

CC(Oc1ccccc1Cl)C(=O)Nc1ccc2oc(-c3ccncc3)nc2c1 (centres unmarked)
Ki (CpIMPDH [3]): 19 nM
M. tuberculosis MIC (Mtb strain H37Rv): 15.2 µM
MIC in 7H9 media + Gua (Mtb strain H37Rv): 60 ± 40 µM
MIC in 7H9 media - Gua (Mtb strain H37Rv): 19.1 ± 13.3 µM (≈ 7.52 µg/mL)
MIC in GAST media + Gua (Mtb strain H37Rv): 38 ± 12 µM
MIC in GAST media - Gua (Mtb strain H37Rv): 15.2 ± 8.2 µM (≈ 5.99 µg/mL)
Ki (BaIMPDH [4]; [7]): 260 nM
B. anthracis MIC (B. anthracis): >50 µM

COc1ccccc1NC(=O)Cc1n[nH]c(=O)c2ccccc12
Ki (CpIMPDH [2]): > 5000 nM

CC(Nc1cccc(Cl)c1Cl)C(=O)Nc1ccc2oc(-c3ccncc3)nc2c1 (racemic)
Ki (BaIMPDH [1]; [6]): 13 nM
Ki (CpIMPDH [2]; [9]): 2 nM
M. tuberculosis MIC (Mtb strain H37Rv): 14.5 µM
MIC in 7H9 media + Gua (Mtb strain H37Rv): 19 ± 0 µM
MIC in 7H9 media - Gua (Mtb strain H37Rv): 14.5 ± 4.8 µM (≈ 6.2 µg/mL)
MIC in GAST media + Gua (Mtb strain H37Rv): >50 µM
MIC in GAST media - Gua (Mtb strain H37Rv): 14.5 ± 4.0 µM (≈ 6.2 µg/mL)

O=C(Cn1c(-c2cscn2)nc2ccccc21)Nc1ccc2ccccc2c1
Ki (BaIMPDH [1]; [13]): 100 nM

CC(Cc1ccccc1)C(=O)Nc1ccc2oc(-c3ccncc3)nc2c1 (centres unmarked)
Ki (BaIMPDH [1]; read-out: Kiapp BaIMPDH, S7 Table, second part): > 5000 nM
Ki (CpIMPDH [2]): > 5000 nM

CC(C(=O)Nc1ccc2oc(-c3ccncc3)nc2c1)c1ccccc1 (centres unmarked)
Ki (CpIMPDH [2]): 120 nM

Clc1ccc(-n2cc(COc3ccnc4ccccc34)nn2)cc1Cl
Ki (BaIMPDH [1]; [5]): 80 nM
Ki (CpIMPDH [2]): 20 nM

O=C(Cc1n[nH]c(=O)c2ccccc12)Nc1ccc(Br)c(Cl)c1
Ki (BaIMPDH [1]; [11]): 270 nM
Ki (CpIMPDH [2]): 30 nM

CC(Oc1ccnc2ccccc12)c1cn(-c2ccc(C#N)cc2)nn1 (centres unmarked)
Ki (CpIMPDH [2]): 140 nM
Ki (BaIMPDH [4]; [14]): 450 nM

O=C(Cn1c(-c2ccccn2)nc2ccccc21)Nc1ccc2ccccc2c1
Ki (CpIMPDH [2]): 8 nM

COc1cccc(NC(=O)Cc2n[nH]c(=O)c3ccccc23)c1
Ki (CpIMPDH [2]): > 5000 nM
Ki (BaIMPDH [4]; [10]): 11000 nM

O=C(Cn1c(-c2nccs2)nc2ccccc21)Nc1ccc(Cl)cc1
Ki (BaIMPDH [1]; [13]): 70 nM

CC(Oc1cccc2ccccc12)C(=O)Nc1ccc(Cl)cc1 (centres unmarked)
Ki (CpIMPDH [2]): 1000 nM

Reference: PMC4594927 (PLoS ONE, 2015)
